## Primary screen of a compound library

Values are the deposited “Percent Effect”, in %.
The controls that fix the scale are not given in the record; negative values are as filed.
This is part of a subset picked to be rich in strong results.

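Phenotypic screen: M. tuberculosis growth, glucose 7H9 medium, 3 days; the read-out is not stated. Tested at 500 µM. Higher reads as more growth inhibition (inferred: compounds with an IC50 in retests scored well above the rest). Size under these conditions: about 18,000 compounds, about 1,400 of them at 50% or above in at least one test.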

structure | percent effect
CCCN1CCC(NCC(O)c2ccncc2)CC1 (stereo not drawn) | 4.456
O=C(COC(=O)CCC(=O)c1cccs1)NC1CC1 | 0.7476
CCC(NC(=O)c1cccc(=O)[nH]1)c1nc(C)c[nH]1 (stereo not drawn) | 11.69
Cc1cccc2c1OCCC2N (stereo not drawn) | 4.061
COCCN(CC(N)=O)CC(=O)N(C)c1ccccc1 | 16.69
COc1ccc(NC(=O)NCc2cc[nH]n2)cc1 | -14.13
Cc1ccc(S(=O)(=O)NCCCN)cc1Br | 42.88
O=C(CSc1ccc(F)cc1)N1CCC1 | 58.22
Cn1cc(CCC(=O)N2C[C@H](C3CC3)[C@@H](N)C2)cn1 | -8.918
CC(Oc1ccc(Cl)cc1)C(=O)N(C)C (stereo not drawn) | 50.05
CN(C)CC1(O)CCCN(CC(C)(C)C)C1=O (stereo not drawn) | 4.866
CCOc1ccc(Cl)cc1CNCCNCCO | 30.99
Cc1ccc(NS(=O)(=O)c2c(C)nn(C)c2Cl)nc1 | 13.99
COc1ccc(CCN)c(Cl)c1 | -8.05
CCC(CC)N(C)C(=O)CNC(=O)C1CC1 | 13.12
C=Cc1ccc(NC(=O)N(C)C2CCN(C)C2)cc1 (stereo not drawn) | 14.19
O=S(=O)(c1ccc(Cl)s1)N1CCNCC1 | 28.52
CCN(C)c1ccc(CO)cc1 | -3.577
CN1CCCN(C(=O)CC(C)(C)C)CC1 | -5.123
CCNC(=O)NCCOC(=O)c1cccc2cc[nH]c12 | 52.58
O=c1ccc(Br)cn1Cc1noc(C2CC2)n1 | 62.68
N#CC1CNCCO1 (stereo not drawn) | -9.076
CC(C)(C)C(=O)CNC(=O)C1(C#N)CCCCC1 | 3.347
NC1CCN(c2ccccc2OC(F)F)C1 (stereo not drawn) | 75.88
CCn1cc(CN2CCCN(C(=O)CSC)CC2)cn1 | 12.6
COc1ccc(Cl)cc1C(=O)N1C[C@H](O)[C@@H](N(C)C)C1 | -6.273
COCC(=O)N(C)C1CCc2ccccc21 (stereo not drawn) | 35.56
c1cn(C2CCCNC2)nn1 (stereo not drawn) | -5.985
N#CCC1(O)CN(Cc2ccc3c(c2)CCO3)C1 | 8.247
C[C@H](N)c1ncccc1F | 1.847
NS(=O)(=O)NCC1(c2ccc(Br)cc2)CCOCC1 | 18.71
COc1cc(CN)cc(Br)c1O | 5.312
COc1cc(NC(=O)N(C)CCN(C)C)ccc1F | 18.74
Cc1cnc(CN2CCC(N)CC2)c(C)c1O | -1.839
CCC(O)(CC)CCN | 4.718
CC(=O)Nc1nnc(C2CCCN2)o1 (stereo not drawn) | 3.434
CC(C)C(N)c1nncn1C (stereo not drawn) | -1.405
O=S(=O)(CCCF)NCc1ccncc1 | 5
NCC(O)c1ccc(Cl)c(F)c1 (stereo not drawn) | 53.33
Cc1ccccc1CC(=O)NCC1(CO)CC1 | 2.012
CCC(CC)C(O)CNC(=O)Cn1cnnn1 (stereo not drawn) | -7.512
NCCn1cc(C(=O)NCCSC2CCCCC2)nn1 | 61.4
CS(=O)(=O)NC1CCN(C(=O)c2cncc(F)c2)CC1 | -1.694
CNC1CCN(S(C)(=O)=O)C1 (stereo not drawn) | -2.178
CC(N)c1nc(-c2ccccc2)c[nH]1 (stereo not drawn) | 31.62
CN1C(=O)[C@H]2CN(Cc3ccc(Cl)cc3)C[C@H]2C1=O | 39.14
CCNC(=O)C1CCCN(c2ccncc2Cl)C1 (stereo not drawn) | 78.47
O=C(NCC(F)(F)F)c1ccc(Cn2cccn2)cc1 | 30.02
C[S+]([O-])C1(CNC(=O)c2ccnc3ccccc23)CC1 (stereo not drawn) | 9.518
CN1CCC(N(C)CC(O)COc2ccccc2)CC1 (stereo not drawn) | 15.7
CC(O)CN(C)Cc1ccc(N2CCCC2)nc1 (stereo not drawn) | 0.8016
Cc1cc(Cl)ccc1OCC(=O)N[C@@H]1CCOC[C@H]1O | 22.17
O=C(NC1CC1)c1ccc(S(=O)(=O)N2CCCC2)cc1 | 23.36
CC(C)n1cnnc1CNC(=O)Nc1ccccc1 | 4.77
CO[C@H]1CN(C(=O)CCCc2cn[nH]c2)CC[C@H]1N | 5.765
CSCC(=O)NCc1ccc(C(=O)N(C)C)o1 | 3.74
COCCCN1CCCN(C(=O)c2sccc2C)CC1 | 16.32
Cc1nccn1-c1ccc(C(C)N)cc1 (stereo not drawn) | 8.207
O=C(CN1CC(O)(C2CC2)C1)Nc1ccccc1F | 26.85
O=C(NCC1CCNCC1)c1coc2ccccc12 | -6.244
CNC(=O)CSCCC1CCCCN1C (stereo not drawn) | -7.147
O=C(NCCCN1CCCCC1CO)c1cnn[nH]1 (stereo not drawn) | -1.211
Nc1ccc(N2CCCCC2)cn1 | 8.084
CC1CCN(Cc2nnnn2C2CC2)CC1 | 35.41
Cc1n[nH]c(C)c1NC(=O)NCc1ccco1 | 8.052
CCc1nn(C)c(CC)c1S(=O)(=O)N(C)C(C)CN (stereo not drawn) | 7.322
CNC(=O)C(CC(C)C)NC(=O)c1ccc(Br)c(O)c1 (stereo not drawn) | 4.505
Cc1cc(NC(=O)NC[C@@H]2C[C@H](F)CN2)n(C(C)C)n1 | 4.345
Cc1nc(C(=O)NCc2cccs2)ccc1C#N | 83.36
COc1ccc(S(=O)(=O)N2CCC(N)CC2)cc1OC | 23.36
CCOCCC1(C(=O)NC2=NCCS2)CCCC1 | 24.67
Cn1cccc1CN1CC(O)(CC#N)C1 | 2.67
CCN1CCN(C(C)CNC(=O)Cn2cnnn2)CC1 (stereo not drawn) | 74.22
COc1cccc(-c2ncc(CN)s2)c1 | 65.16
O=C(c1ccc(-n2ccnc2)cc1)N1CCOCC1 | 34.22
CCC[C@H]1CN(C(=O)CCn2cnnn2)C[C@@H]1N | 16.02
CC1(C)Oc2ccc(NC(=O)C3CCOC3)cc2O1 (stereo not drawn) | 59.73
Cc1cc(CNC(=O)CCC2CCCN(C)C2)n(C)n1 (stereo not drawn) | 2.088
O=C(Nc1n[nH]c(C2CCC2)n1)c1cc(F)ccc1F | -2.146

Measurements from “University of Dundee, Small-Polar-MMV Screening Library” (2021), ChEMBL document CHEMBL3988442.